Measured values from several laboratories, pooled; numbers as filed in NIAID ChemDB.

All rows: whole-cell or culture tests; organism: Sindbis virus; read-out: EC50

Conditions beyond the fields shown may differ between rows.

smiles,method,cells,result
CC=NC(=N)c1nc(-c2cccc(C)c2)n(COCCO)n1,cytopathic effect,VERO,>200 µg/mL
COC(=O)[C@]1(C)CCC[C@]2(C)c3cc(Br)c4nc(C)[nH]c4c3CCC12,plaque count,VERO,>4 µg/mL
OC[C@H]1O[C@@H](c2cncc(Br)c2)[C@@H](O)[C@H]1O,cytopathic effect,VERO,≥100 µg/mL
CSCC1=C[C@@H](n2cnc3c(N)ncnc32)[C@H](O)[C@@H]1O,cytopathic effect,VERO,>200 µg/mL
Cc1cn([C@H]2O[C@H](CO)[C@@H](N=[N+]=[N-])[C@H]2F)c(=O)nc1N,cytopathic effect,VERO B,>400 µg/mL
Cc1cn([C@@H]2OC[C@H](CO)[C@H]2O)c(=O)[nH]c1=O,cytopathic effect,VERO,>80 µg/mL
COCC1=C[C@@H](n2cnc3c(N)ncnc32)[C@H](O)[C@@H]1O,cytopathic effect,VERO,70 µg/mL
Nc1nc(Cl)c2ccn([C@H]3CO[C@@H](CO)C3)c2n1,cytopathic effect,VERO,>200 µg/mL
Nc1ccn([C@@H]2OC[C@H](CO)[C@H]2O)c(=O)n1,cytopathic effect,VERO,>80 µg/mL
CC1(C)[C@@H](CO)CC[C@@]1(C)Cn1ccc(=O)[nH]c1=O,cytopathic effect,VERO,>400 µg/mL
O=C(Nn1c(-c2cn(-c3ccccc3)nc2-c2ccccc2)n[nH]c1=S)c1ccccc1,cytopathic effect,VERO,>16 µg/mL
CC(=O)OCCOCN1C(C)=CC(N)=[N+](c2ccccc2)S1(=O)=O,-,VERO,>400 µg/mL
Cc1cn([C@@H]2OC[C@H](CO)[C@H]2N=[N+]=[N-])c(=O)[nH]c1=O,cytopathic effect,VERO,>80 µg/mL
N#Cc1cncc([C@@H]2O[C@H](CO)[C@@H](O)[C@@H]2O)c1,cytopathic effect,VERO,≥100 µg/mL
Nc1nc2c(ncn2[C@H]2CO[C@@H](CO)C2)c(=O)[nH]1,cytopathic effect,VERO,>400 µg/mL
CC(Sc1ncnc2c1cnn2COCCO)C(N)=O,cytopathic effect,VERO,>400 µg/mL
Cc1nn2c(-c3cn(-c4ccccc4)nc3-c3ccccc3)nnc2s1,cytopathic effect,VERO,>3.2 µg/mL
C=C(N=CC)c1nc(-c2ccc(OC)cc2)n([C@@H]2O[C@H](CO)[C@@H](O)[C@H]2O)n1,cytopathic effect,VERO,>100 µg/mL
COC(=O)[C@]1(C)CCC[C@]2(C)c3cc4cc[nH]c4cc3CCC12,plaque count,VERO,>4 µg/mL
CC1(C)[C@@H](CCO)C[C@H]1n1nnc2c(Cl)nc(N)nc21,cytopathic effect,VERO,>200 µg/mL
Nc1ncnc2c1ncn2C1CC(CO)[C@@H](O)[C@H]1O,cytopathic effect,VERO,3 µg/mL
CC1(C)[C@@H](CCO)C[C@H]1n1cnc2c(=O)[nH]c(N)nc21,cytopathic effect,VERO,>400 µg/mL
CCOC(=O)Sc1nnc(-c2cn(-c3ccccc3)nc2-c2ccccc2)n1N,cytopathic effect,VERO,>80 µg/mL
CC(Sc1ncnc2c1cnn2COCC(O)CO)C(N)=O,cytopathic effect,VERO,>400 µg/mL
O=C(NS(=O)(=O)OC[C@H]1O[C@@H](n2ccc(=O)[nH]c2=O)[C@H](O)[C@@H]1O)O[C@H]1O[C@H](COC(=O)c2ccccc2)[C@@H](OC(=O)c2ccccc2)[C@H](OC(=O)c2ccccc2)[C@H]1OC(=O)c1ccccc1,plaque count,VERO,55 µg/mL
NC(=O)c1cncc([C@@H]2O[C@H](CO)[C@H](O)[C@@H]2O)c1,cytopathic effect,VERO,≥100 µg/mL
CC1(C)[C@@H](CCO)C[C@H]1n1nnc2c(=O)[nH]c(N)nc21,cytopathic effect,VERO,>400 µg/mL
CC(=O)OCCOCN1C=CC(=O)N(COCCO)S1(=O)=O,-,VERO,>400 µg/mL
NC(=O)CSc1ncnc2c1cnn2COCC(O)CO,cytopathic effect,VERO,>400 µg/mL
Cc1cccn2c(C3OCCO3)cnc12,-,VERO,>1000 µM
COC(=O)[C@]1(C)CCC[C@]2(C)c3ccc4nc(-c5ccccc5)c(-c5ccccc5)nc4c3CCC12,plaque count,VERO,>4 µg/mL
CC(=O)OCCOCN1C(=N)/C(=C(\C)O)C(N)=NS1(=O)=O,-,VERO,>400 µg/mL
Cc1ccn2c(C3OCCO3)cnc2c1,-,VERO,>1000 µM
CC=NC(=N)c1nc(-c2cccc(OC)c2)n(Cc2ccccc2)n1,cytopathic effect,VERO,>10 µg/mL
Cc1ccn2c(C3SCCS3)cnc2c1,-,VERO,>1000 µM
C/C(O)=C1\C(=N)N(COCCO)S(=O)(=O)N=C1N,-,VERO,>400 µg/mL
CC=NC(=N)c1nc(-c2ccc(C)cc2)n(C/C=C/c2ccccc2)n1,cytopathic effect,VERO,>10 µg/mL
CC1(C)[C@@H](CO)CC[C@@]1(C)Cn1cnc2c(N)ncnc21,cytopathic effect,VERO,>400 µg/mL
NC(=S)c1cncc([C@H]2O[C@H](CO)[C@@H](O)[C@@H]2O)c1,cytopathic effect,VERO,≥100 µg/mL
CC=NC(=N)c1nc(-c2cccc(C)c2)n(C/C=C/c2ccccc2)n1,cytopathic effect,VERO,>10 µg/mL
NC(=O)c1cncc([C@H]2O[C@H](CO)[C@@H](O)[C@@H]2O)c1,cytopathic effect,VERO,≥100 µg/mL
Cc1cccn2c(C3OCCS3)cnc12,-,VERO,>1000 µM
CC1(C)[C@@H](CO)CC[C@@]1(C)Cn1cc(I)c(=O)[nH]c1=O,cytopathic effect,VERO,>400 µg/mL
Nc1ncnc2c1ncn2C1CC(COP(=O)(O)O)[C@@H](O)[C@H]1O,cytopathic effect,VERO,≥10 µg/mL
CCOC(=O)CSc1nnc(-c2cn(-c3ccccc3)nc2-c2ccccc2)n1N,cytopathic effect,VERO,>16 µg/mL
CC(=O)OCCOCN1C(N)=CC(N)=NS1(=O)=O,-,VERO,>400 µg/mL
CC(C)O[C@@H]1[C@H](OC(C)C)[C@@H](COS(=O)(=O)NC(=O)O[C@H]2O[C@H](COC(=O)c3ccccc3)[C@@H](OC(=O)c3ccccc3)[C@H](OC(=O)c3ccccc3)[C@H]2OC(=O)c2ccccc2)O[C@H]1n1ccc(=O)[nH]c1=O,plaque count,VERO,>100 µg/mL
COC(=O)[C@]1(C)CCC[C@]2(C)c3ccc4nc5c(nc4c3CCC12)CCCC5,plaque count,VERO,>4 µg/mL
O=C(NS(=O)(=O)OC[C@H]1O[C@@H](n2ccc(=O)[nH]c2=O)[C@H](O)[C@@H]1O)O[C@H]1O[C@H](COC(=O)c2ccccc2)[C@@H](OC(=O)c2ccccc2)[C@H](OC(=O)c2ccccc2)[C@@H]1OC(=O)c1ccccc1,plaque count,VERO,>200 µg/mL
CCOC(=O)C1Sc2nnc(-c3cn(-c4ccccc4)nc3-c3ccccc3)n2NC1=O,cytopathic effect,VERO,>16 µg/mL
CC(C)OC1[C@H](n2ccc(=O)[nH]c2=O)O[C@H](COS(=O)(=O)NC(=O)N[C@@H]2O[C@H](COC(=O)c3ccccc3)[C@@H](OC(=O)c3ccccc3)[C@H](OC(=O)c3ccccc3)[C@H]2OC(=O)c2ccccc2)[C@H]1OC(C)C,plaque count,VERO,200 µg/mL
NC(=O)c1cncc([C@H]2O[C@H](CO)[C@H](O)[C@@H]2O)c1,cytopathic effect,VERO,≥100 µg/mL
[N-]=[N+]=N[C@H]1[C@@H](F)[C@H](n2cnc3c(N)ncnc32)O[C@@H]1CO,cytopathic effect,VERO B,>200 µg/mL
S=c1[nH]nc(-c2cn(-c3ccccc3)nc2-c2ccccc2)o1,cytopathic effect,VERO,>16 µg/mL
NC(=O)c1cncc([C@@H]2O[C@H](CO)[C@@H](O)[C@@H]2O)c1,cytopathic effect,VERO,≥100 µg/mL
C=C(N=CC)c1nc(-c2cccc(C)c2)n(C2O[C@H](CO)[C@@H](O)[C@H](O)[C@H]2O)n1,cytopathic effect,VERO,>100 µg/mL
Nn1c(SCC(=O)O)nnc1-c1cn(-c2ccccc2)nc1-c1ccccc1,cytopathic effect,VERO,>80 µg/mL

8 of the rows above, restated:

smiles	method	cells	result
C/C(O)=C1\C(=N)N(COCCO)S(=O)(=O)N=C1N	-	VERO	>400 µg/mL
CC1(C)[C@@H](CCO)C[C@H]1n1nnc2c(Cl)nc(N)nc21	cytopathic effect	VERO	>200 µg/mL
COC(=O)[C@]1(C)CCC[C@]2(C)c3ccc4nc5c(nc4c3CCC12)CCCC5	plaque count	VERO	>4 µg/mL
CC(C)OC1[C@H](n2ccc(=O)[nH]c2=O)O[C@H](COS(=O)(=O)NC(=O)N[C@@H]2O[C@H](COC(=O)c3ccccc3)[C@@H](OC(=O)c3ccccc3)[C@H](OC(=O)c3ccccc3)[C@H]2OC(=O)c2ccccc2)[C@H]1OC(C)C	plaque count	VERO	200 µg/mL
NC(=O)CSc1ncnc2c1cnn2COCC(O)CO	cytopathic effect	VERO	>400 µg/mL
O=C(Nn1c(-c2cn(-c3ccccc3)nc2-c2ccccc2)n[nH]c1=S)c1ccccc1	cytopathic effect	VERO	>16 µg/mL
CC(Sc1ncnc2c1cnn2COCCO)C(N)=O	cytopathic effect	VERO	>400 µg/mL
Nn1c(SCC(=O)O)nnc1-c1cn(-c2ccccc2)nc1-c1ccccc1	cytopathic effect	VERO	>80 µg/mL

ECn is the concentration giving n% inhibition of infection, replication or growth. An empty or dashed field is not shown.